A mixed list of measured activities; the numbers were collected in NIAID ChemDB.

Common to all: tests in culture; organism: Human cytomegalovirus; read by: plaque count; read-out: EC50

Lines come from different laboratories, so protocols vary. ECn: concentration that inhibits the pathogen or its effect by n%.

compound,strain,cell line,value
Nc1nccc2c1ncn2[C@@H]1O[C@H](CO)[C@@H](O)[C@H]1O,AD-169 (20 PFU),HEL,2.4 µg/mL
O=c1cc(-c2ccc(O)c(O)c2)oc2cc(O)cc(O)c12,Isolate 6,HEF,8.4 µM
O=C(O)C[C@H](NCCN[C@@H](CC(=O)O)C(=O)O)C(=O)O,DER530 (GCV HPMPC-resistant),HEL,7.4 µg/mL
C[C@@H](N)C(=O)O[C@H]1C[C@H](n2cc(/C=C/Br)c(=O)[nH]c2=O)O[C@@H]1COP1(=O)OCc2ccccc2O1,AD169,HELF,>128 µg/mL
O=C1c2ccc(O)c(O)c2C(=O)c2c(O)ccc(O)c21,AD169,MRC-5,3.7 µM
Cc1cccc2c1OP(=O)(OC[C@H]1O[C@@H](n3cc(/C=C/Br)c(=O)[nH]c3=O)C[C@@H]1OC(=O)[C@@H](N)C(C)C)OC2,AD169,HELF,>128 µg/mL
Cc1cc(O)c2c(c1)/C(=C1\c3cc(C)cc(O)c3C(=O)c3c(O)cc(O)cc31)c1cc(O)cc(O)c1C2=O,AD169,MRC-5,1 µM
Nc1ccn(C[C@@H](CO)OCP(=O)(O)O)c(=O)n1,U9070 (ganciclovir-resistant),HEL,0.3 µg/mL
O=C(NCCc1c[nH]c2ccccc12)C1=Cc2ccncc2CC1,TOWNE,HFF,0.41 µM
Nc1nc2c(ncn2COC(CO)CO)c(=O)[nH]1,AD169,MRC-5,10.6 µM
CC(=O)CCC(=O)O[C@H]1C[C@H](n2cc(/C=C/Br)c(=O)[nH]c2=O)O[C@@H]1COP1(=O)OCc2ccccc2O1,AD169,HELF,>128 µg/mL
Nc1ncnc2c1ncn2[C@@H]1C=C(CO)[C@@H](O)[C@H]1O,DAVIS (20 PFU),HEL,0.09 µg/mL
CC1CNCCN1S(=O)(=O)c1cccc2cnccc12,Isolate 6,HEF,23.6 µM
O=C1c2ccc(O)cc2C(=O)c2ccc(O)cc21,AD169,MRC-5,>13.3 µM
C[C@@H](O)C1=C[C@@H](n2cnc3c(N)ncnc32)[C@H](O)[C@@H]1O,AD-169 (20 PFU),HEL,0.053 µg/mL
CCCCCC(=O)O[C@H]1C[C@H](n2cc(/C=C/Br)c(=O)[nH]c2=O)O[C@@H]1COP1(=O)OCc2cccc(C)c2O1,AD169,HELF,>128 µg/mL
C[C@@H]1C[C@@H](n2cnc3c(N)ncnc32)[C@H](O)[C@@H]1O,AD-169 (20 PFU),HEL,175 µg/mL
Nc1nc2c(ncn2COC(CO)CO)c(=O)[nH]1,AD169,HEL,1.1 µg/mL
C=C[C@H]1C[C@@H](n2cnc3c(N)ncnc32)[C@H](O)[C@@H]1O,AD-169 (20 PFU),HEL,21.2 µg/mL
O=c1c(-c2ccc(O)cc2)coc2cc(O)cc(O)c12,AD169,HEF,31.1 µM